Anti-infective test results gathered from many reports (values: NIAID ChemDB through PubChem).

All rows: tests in culture; organism: Mycobacterium tuberculosis

ECn is the concentration giving n% inhibition of infection, replication or growth.

structure	tested at	method	strain or isolate	mutations	measure	result
C[C@H]1C[C@@H]1NC(=O)c1cc2sc(OC3CC(N4CCOCC4)C3)nc2s1	-	visual reading	H37Rv	-	MIC	0.98 µM
CC(=O)C(Cl)C(=O)c1c(C)[nH]n(-c2ccccc2)c1=O	-	resazurin	H37Rv	-	MIC bound	>6.25 µg/mL
CC1(C)S[C@@H]2[C@H](NC(=O)C(C(=O)O)c3ccccc3)C(=O)N2[C@H]1C(=O)O	-	resazurin	H37Rv	-	MIC	512 µg/mL
C[C@@H]1CN(c2nc3sc(C(=O)N[C@H]4C[C@@H]4C)cc3s2)CCN1C(=O)C1CC1	-	visual reading	H37Rv	-	MIC	2.85 µM
C(=C\c1nc2ccccc2[nH]1)/c1ccccc1	-	radiometric	H37Rv	-	MIC	>500 µM
NC(=S)c1cc(SCc2ccc(Cl)c(Cl)c2)ccn1	-	-	CNCTC MY331/88	-	MIC	7.94 µM
O=[n+]1c2ccc(Cl)cc2n([O-])c2ccc(Cl)cc21	-	-	PAS-R	-	MIC	12.5 µg/mL
Nc1ccc(-c2nnc(SCc3ccc([N+](=O)[O-])cc3)n2-c2ccccc2)cc1	6.25 µg/mL	-	H37Rv	-	inhibition	<50%
COC(=O)N1CC[C@@H](Oc2nc3sc(C(=O)NC4CCC4)cc3s2)C1	-	visual reading	H37Rv	-	MIC	0.48 µM
Cc1nc2ccc(NCCN(C)C)c3c(=O)c4cc(O)ccc4n1c23	12.5 µg/mL	BACTEC	H37Rv	-	inhibition	41%
CCCCCCCCCCCCCCCCC(=O)OC[C@H]1O[C@@H](O[C@H]2CC[C@@]3(C)C(=CC[C@H]4[C@@H]5CC[C@H]([C@H](C)CC[C@@H](CC)C(C)C)[C@@]5(C)CC[C@@H]43)C2)[C@H](O)[C@@H](O)[C@@H]1O	-	-	H37Rv	-	MIC	128.1 µg/mL
COc1ccc2nc(-c3ccc(OC)c(OC)c3)[nH]c2c1	-	radiometric	H37Rv	-	MIC	>500 µM
NNC(=O)c1ccncc1	-	-	H37R (MTB)	-	MIC	0.7 µM
Cc1cc2nc3ccc(N=Nc4ccc(N(C)C)cc4)cc3n(-c3ccccc3)c-2cc1=N	-	-	RMP-R	-	MIC	0.031 µg/mL
Cc1cc(C2=NOC(c3ccc(Br)cc3)C2)ccc1O	-	-	H37R (MTB)	-	MIC	0.62 µM
Cc1cccc(CSc2ccnc(C#N)c2)c1	-	-	CNCTC MY331/88	-	MIC	61.66 µM
COc1cc(-c2nc3ccccc3[nH]2)ccc1O	-	radiometric	H37Rv	-	MIC	>500 µM
O=c1nc(Oc2ccc(Cl)cc2Cl)oc2cc(Cl)ccc12	6.25 µg/mL	-	H37Rv	-	inhibition	-11%
CC1CC(NC(=O)c2cc3sc(N4CCN(C5COC5)[C@H](C)C4)nc3s2)C1	-	visual reading	H37Rv	-	MIC	1.41 µM
Cc1nc(C(N)=O)c(C(=O)O)nc1C.N	-	BACTEC	H37Rv	-	MIC	≥12.5 µg/mL
CCC1Cn2cc([N+](=O)[O-])nc2O1	-	-	1 isolates streptomycin-resistant	-	MIC	0.08 µg/mL
Oc1cc(Cl)ccc1C(=S)NCc1ccc(F)cc1	-	-	My 331/88	-	MIC	1 µg/mL
CC(C)(C)OC(=O)N[C@@H](Cc1ccccc1)[C@H](O)C[C@H](Cc1ccccc1)N=Cc1ccc(-c2ccccc2)nc1	-	resazurin	ATTC 27294	-	MIC	91 µM
NC(=S)c1cc(SCc2ccc(F)c(F)c2)ccn1	-	-	CNCTC MY331/88	-	MIC	7.94 µM
COc1ccn2nc(C)c(C(=O)NCc3ccc(-c4ccc(OC(F)(F)F)cc4)cc3F)c2c1	-	fluorescence	H37Rv	-	MIC	<0.02 µg/mL
CC(C)c1nc(CN(C)C(=O)N[C@H](C(=O)N[C@@H](Cc2ccccc2)C[C@H](O)[C@H](Cc2ccccc2)NC(=O)OCc2cncs2)C(C)C)cs1	-	resazurin	ATTC 27294	-	MIC	>138.7 µM
CC(=O)N(C)c1ccc(Nc2cc(S(=O)(=O)O)c(N)c3c2C(=O)c2ccccc2C3=O)cc1	-	BACTEC	H37Rv	-	MIC bound	>12.5 µg/mL
C[C@H]1C[C@@H]1NC(=O)c1cc2sc(OC3CC4(COC4)C3)nc2s1	-	visual reading	H37Rv	-	MIC	0.77 µM
Cc1ccc(-n2c(SCc3ccc(Cl)cc3Cl)nnc2-c2ccc(N=Cc3ccc(O)cc3)cc2)cc1	-	-	H37Rv	-	EC50	<6.25 µg/mL
CC[C@H](/C=C/[C@@H](C)[C@H]1CC[C@H]2[C@@H]3CC=C4C[C@@H](O[C@@H]5O[C@H](CO)[C@@H](O)[C@H](O)[C@H]5O)CC[C@]4(C)[C@H]3CC[C@]12C)C(C)C	-	-	H37Rv	-	MIC	>128 µg/mL
CC1=NNC(=O)C1=C(C)C	-	-	-	-	MIC	>200 µg/mL
N#Cc1cc(SCc2cccc(Cl)c2)ccn1	-	-	CNCTC MY331/88	-	MIC	61.66 µM
O=C(CN1CCCCC1)NC(=O)N/N=C/c1ccco1	12.5 µg/mL	BACTEC	H37Rv	-	inhibition	-2%
Cc1ccc(-n2c(SCc3ccccc3)nnc2-c2ccc(N)cc2)cc1	-	-	H37Rv	-	EC50	<6.25 µg/mL
CC(C)CCCC(C)C1CCC2C3CC=C4C/C(=N/NC(=O)c5ccccc5)CCC4(C)C3CCC12C	-	-	-	-	MIC	>1000 µg/mL
CC1(C)N=C(C(N)=O)c2ncn(N)c2N1	-	BACTEC	H37Rv	-	MIC bound	>12.5 µg/mL
C[C@H]1C[C@@H]1NC(=O)c1cc2sc(C3CC3)nc2s1	-	visual reading	H37Rv	-	MIC	1.88 µM
COC1/C=C\C=C(/C)C(=O)Nc2cc3nc4cc(Br)ccc4oc-3c(c2=O)CC(C)CC(OC)C(O)C(C)/C=C(\C)C1OC(N)=O	-	-	PZA-R	-	MIC	12.5 µg/mL
COc1cc(-c2nnnn2S(=O)(=O)c2ccc([N+](=O)[O-])cc2)ccc1OCC(O)(Cn1cncn1)c1ccc(Cl)cc1Cl	-	resazurin	H37Rv	-	MIC100	3.12 µg/mL
O=S1OCC#CCOS(=O)OCC#CCO1	12.5 µg/mL	BACTEC	H37Rv	-	inhibition	6%
CC1(C)S[C@@H]2[C@H](NC(=O)[C@H](N)c3ccc(O)cc3)C(=O)N2[C@H]1C(=O)O	-	resazurin	H37Rv	-	MIC	512 µg/mL
O=C(N/N=C/c1ccccc1)c1cc(Cl)ccc1Cl	-	-	-	-	MIC	100 µg/mL
C[C@H]1C[C@@H]1NC(=O)c1cc2sc(OC[C@@H]3CCOC3)nc2s1	-	visual reading	H37Rv	-	MIC	0.63 µM
COc1ccc(C2CC(c3ccc(O)c(C)c3)=NO2)cc1	-	-	H37R (MTB)	-	MIC	>6.25 µM
CC(=O)Nc1ccc(/C=N/NC(=O)c2ccccc2)cc1	-	-	-	-	MIC	10 µg/mL
Cc1coc2c1C(OC(=O)C(C)C)C1(C)C(C)CCC(O)C1C2=O	-	BACTEC	H37Rv	-	MIC bound	>12.5 µg/mL
COc1cc(-c2oc3cc(O)cc(O)c3c(=O)c2O[C@@H]2O[C@H](CO[C@@H]3O[C@@H](C)[C@H](O)[C@@H](O)[C@H]3O)[C@@H](O)[C@H](O)[C@H]2O)ccc1O	-	-	H37Rv	-	MIC	>128 µg/mL
C[N+](C)(C)NP(=O)(N[N+](C)(C)C)c1ccccc1	12.5 µg/mL	BACTEC	H37Rv	-	inhibition	0%
N[C@@H](Cc1ccccc1)[C@H](O)C[C@H](Cc1ccccc1)N=Cc1ccc([N+](=O)[O-])o1	-	resazurin	ATTC 27294	-	MIC	>245.5 µM
O=c1[nH]ncc2ccccc12	-	-	-	-	MIC	10 µg/mL
O=[N+]([O-])c1ccc(C=Nc2ccc(-c3nnc(SCc4ccc(Cl)cc4Cl)n3-c3ccccc3)cc2)o1	-	-	H37Rv	-	EC50	<6.25 µg/mL
COc1cc(C2CC(c3ccc(O)c(C)c3)=NO2)cc(OC)c1OC	-	-	INH-resistant M. tuberculosis	-	MIC	>6.25 µM
CC12C[C@H]3OC(=O)[C@@H]1COC14OC5([C@H]2C1=O)[C@@](O)(CC[C@H]1[C@H]4C[C@@H](O)[C@@]2(O)CC=CC(=O)[C@]12C)C(=O)O[C@@]35C	-	-	H37Rv	-	MIC	32 µg/mL
N#Cc1cc(SCc2ccccc2F)ccn1	-	-	CNCTC MY331/88	-	MIC	126 µM
C/C(=N\NC(=O)c1ccccc1)c1ccccc1	-	-	-	-	MIC	10 µg/mL
Cc1cc(C2=NOC(c3ccc(F)cc3)C2)ccc1O	-	-	INH-resistant M. tuberculosis	-	MIC	2.92 µM
CCOc1ccc(C(=O)N/N=C/c2ccc([N+](=O)[O-])cc2)cc1	-	-	-	-	MIC	100 µg/mL
COc1cc(-c2nnnn2S(=O)(=O)c2ccc(OC(F)(F)F)cc2)ccc1OCC(O)(Cn1cncn1)c1ccc(Cl)cc1Cl	-	resazurin	H37Rv	-	MIC100	6.25 µg/mL
COc1c(N2CCNC(C)C2)c(F)cc2c(=O)c(C(=O)O)cn(C3CC3)c12	-	-	5 isolates drug-resistant	-	MIC90	0.031 µg/mL
N#Cc1cc(SCc2ccc(F)c(F)c2)ccn1	-	-	CNCTC MY331/88	-	MIC	126 µM
CO[C@H]1/C=C/O[C@@]2(C)Oc3c(C)c(O)c4c(O)c(c(/C=N/N5CCN6CCCCC6C5)c(O)c4c3C2=O)NC(=O)/C(C)=C\C=C\[C@H](C)[C@H](O)[C@@H](C)[C@@H](O)[C@@H](C)[C@H](OC(C)=O)[C@@H]1C	-	-	Rifampicin-resistant	-	MIC	>3 µg/mL
Oc1cc(Br)ccc1C(=S)NCc1cccc(Br)c1	-	-	My 331/88	-	MIC	1 µg/mL
C=CC(C)(O)CCC1C(=C)C(O)CC2C(C)(C)CCCC12C	-	-	H37Rv	-	MIC bound	>6.25 µg/mL
Cc1cc(C2=NOC(c3cccc([N+](=O)[O-])c3)C2)ccc1O	-	-	H37R (MTB)	-	MIC	6.25 µM
CCCCCCNc1ccc2cnn(C)c2c1	-	resazurin	H37Rv	-	MIC	>100 µM
COc1cc(-c2nnnn2S(=O)(=O)c2ccc(C)cc2)ccc1OCC(O)(Cn1cncn1)c1ccc(F)cc1F	-	resazurin	H37Rv	-	MIC100	6.25 µg/mL
O=C(NC(=O)c1c(F)cccc1F)Nc1cccc(Oc2ncc(Cl)cn2)c1	12.5 µg/mL	BACTEC	H37Rv	-	inhibition	0%
C[C@H]1C[C@@H]1NC(=O)c1cc2sc(N3CCOC(C)(C)C3)nc2s1	-	visual reading	H37Rv	-	MIC	3.44 µM
Cc1cccn2c(=O)c(/C=N/NC(N)=S)c(Cl)nc12	6.25 µg/mL	resazurin	H37Rv	-	inhibition	20%
NC(=S)c1cc(SCc2c(F)cccc2Cl)ccn1	-	-	CNCTC MY331/88	-	MIC	7.94 µM
NNC(=O)c1ccncc1	-	-	17 strains	-	MIC	0.025–0.05 µg/mL
c1ccc2[nH]c(-c3ccc4c(c3)OCO4)nc2c1	-	radiometric	H37Rv	-	MIC	>500 µM
NNC(=O)c1ccc([N+](=O)[O-])o1	-	BACTEC	H37Rv	-	MIC bound	≤12.5 µg/mL
COc1ccn2nc(C)c(C(=O)NCc3ccc(-c4ccc(OC(F)(F)F)cc4)cn3)c2c1	-	fluorescence	H37Rv	Rifampicin-resistant	MIC	<0.002 µg/mL
O=C(Nn1cnc2ccccc2c1=O)c1ccc(NC(=S)Nc2ccccc2)cc1	12.5 µg/mL	BACTEC	H37Rv	-	inhibition	35%
CC(C)=NNC(=O)c1ccc(NS(=O)(=O)c2ccccc2)cc1	-	-	-	-	MIC	>200 µg/mL
CO[C@H]1/C=C/O[C@@]2(C)Oc3c(C)c(O)c4c(=O)c(c5oc6cc(N7CCN(CC(C)C)CC7)cc(=O)c6nc5c4c3=C2O)NC(=O)/C(C)=C\C=C\[C@H](C)[C@H](O)[C@@H](C)[C@@H](O)[C@@H](C)[C@H](OC(C)=O)[C@@H]1C	-	-	H37Rv	-	MBC	0.3–0.6 µg/mL
Cc1cccc(C)c1OCC(=O)N[C@@H](Cc1ccccc1)[C@@H](O)C[C@H](Cc1ccccc1)NC(=O)[C@H](C(C)C)N1CCCNC1=O	-	resazurin	ATTC 27294	-	MIC	>159 µM
Nc1ccc(-c2nnc(SCc3ccc(Cl)cc3Cl)n2-c2ccccc2)cc1	-	-	H37Rv	-	EC50	<6.25 µg/mL
CCc1nc2ccccc2[nH]1	-	radiometric	H37Rv	-	MIC	>500 µM
O=C(O)C1NCCNC1C(=O)O	-	BACTEC	H37Rv	-	MIC bound	>12.5 µg/mL
COc1ccc(C2CC(c3ccc(O)c(C)c3)=NO2)cc1OC	-	-	INH-resistant M. tuberculosis	-	MIC	>6.25 µM
COc1ccc(O)c(C(=S)NCc2ccccc2)c1	-	-	My 331/88	-	MIC	2 µg/mL
COc1cc(-c2nnnn2S(=O)(=O)c2ccc(C)cc2)ccc1OCC(O)(Cn1cncn1)c1ccc(Cl)cc1Cl	-	resazurin	H37Rv	-	MIC100	3.12 µg/mL

For reference, 9 entries again:

structure	tested at	method	strain or isolate	mutations	measure	result
CC12C[C@H]3OC(=O)[C@@H]1COC14OC5([C@H]2C1=O)[C@@](O)(CC[C@H]1[C@H]4C[C@@H](O)[C@@]2(O)CC=CC(=O)[C@]12C)C(=O)O[C@@]35C	-	-	H37Rv	-	MIC	32 µg/mL
NC(=S)c1cc(SCc2ccc(F)c(F)c2)ccn1	-	-	CNCTC MY331/88	-	MIC	7.94 µM
Oc1cc(Cl)ccc1C(=S)NCc1ccc(F)cc1	-	-	My 331/88	-	MIC	1 µg/mL
C[C@H]1C[C@@H]1NC(=O)c1cc2sc(C3CC3)nc2s1	-	visual reading	H37Rv	-	MIC	1.88 µM
COc1cc(-c2nc3ccccc3[nH]2)ccc1O	-	radiometric	H37Rv	-	MIC	>500 µM
N[C@@H](Cc1ccccc1)[C@H](O)C[C@H](Cc1ccccc1)N=Cc1ccc([N+](=O)[O-])o1	-	resazurin	ATTC 27294	-	MIC	>245.5 µM
COc1ccc(C2CC(c3ccc(O)c(C)c3)=NO2)cc1	-	-	H37R (MTB)	-	MIC	>6.25 µM
O=C(Nn1cnc2ccccc2c1=O)c1ccc(NC(=S)Nc2ccccc2)cc1	12.5 µg/mL	BACTEC	H37Rv	-	inhibition	35%
C[C@H]1C[C@@H]1NC(=O)c1cc2sc(N3CCOC(C)(C)C3)nc2s1	-	visual reading	H37Rv	-	MIC	3.44 µM

Two numbers with a dash give a range or band. Conditions beyond the fields shown may differ between rows. MIC50, MIC90 and the like: level of inhibition, or share of isolates inhibited. MIC bound: limit read from a one-dose screen. Inhibition is in % at the dose shown (toxicity tests: loss of growth or viability). Blank or dashed fields: not listed here.